# Replication capacity of HIV-1 mutants, RT

Source: Al-Mawsawi et al. 2014 (doi:10.1186/s12977-014-0124-6), supplementary data.

Protein: RT of HIV-1 NL4-3, numbered from its first residue.
Effects on overlapping genes or RNA elements are not listed.

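Seven fragments of pNL4-3 were mutated by error-prone PCR, and each virus pool was passaged in CEM T cells. Sequencing gave the RC index: frequency after two rounds over frequency in the input plasmid.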

Values are the RC index; higher means better tolerated. The authors read about 0.1 or less as lethal, 0.1-0.2 as attenuated and 0.2 or more as tolerated. A change reads original residue, position, new residue.

V423A (base T3817C): 0.136.
L525S (base T4123C): 0.157.
S163C (base A3036T): 0.0530.
A502E (base C4054A): 0.0463.
D17Y (base G2598T): 0.0786.
E44A (base A2680C): 0.0888.
L517I (base T4098A): 0.0531.
F171C (base T3061G): 0.0704.
W266R (base T3345A): 0.00347.
T107A (base A2868G): 0.0292.
I521T (base T4111C): 0.100.
V108A (base T2872C): 0.0423.
Q428L (base A3832T): 0.0426.
M16L (base A2595T): 0.0552.
G273V (base G3367T): 0.116.
W401S (base G3751C): 0.0412.
N348Y (base A3591T): 0.0654.
K527N (base A4130T): 0.0439.
T286N (base C3406A): 0.0969.
P14R (base C2590G): 0.0666.
E53D (base A2708C): 0.0224.
S163N (base G3037A): 0.170.
Y501C (base A4051G): 0.0400.
A327P (base G3528C): 0.228.
K154R (base A3010G): 0.0516.
V241L (base G3270T): 0.0193.
D498V (base A4042T): 0.0564.
K287Q (base A3408C): 0.0816.
K30I (base A2638T): 0.130.
T84N (base C2800A): 0.0299.
P387L (base C3709T): 0.180.
Q161K (base C3030A): 0.0791.
Q334H (base A3551C): 0.172.
K11I (base A2581T): 0.0524.
L92S (base T2824C): 0.0991.

4 of these entries, quoted again:

| change | base | RC index |
|---|---|---|
| T84N | C2800A | 0.0299 |
| E44A | A2680C | 0.0888 |
| L525S | T4123C | 0.157 |
| I521T | T4111C | 0.100 |

The authors read an index above 1 as above wild type (1.9% of all changes in the genome). Clones carried about five changes per kilobase, which can drag down the index of neutral changes. Base changes are numbered along pNL4-3.